Anti-infective test results gathered from many reports (values: NIAID ChemDB through PubChem).

All rows: growth or infection tests; organism: HIV-1; measure: fold resistance

Conditions beyond the fields shown may differ between rows. Blank or dashed fields: not listed here. Fold resistance has wild type as its base.

SMILES	strain	changes	cells	method	value
Cc1cn([C@H]2C=C[C@@H](CO)O2)c(=O)[nH]c1=O	RT Δ.67 T69G K103N	1 (Δ.67+T69G+K103N)	MT-2	p24	4.1
O=P(O)(O)Cc1cc2c(O)c(c1)Sc1cc(CP(=O)(O)O)cc(c1O)Sc1cc(CP(=O)(O)O)cc(c1O)Sc1cc(CP(=O)(O)O)cc(c1O)S2		integrase inhibitor resistance mutation	TZM-bl + MT-2	luciferase	1.3
CC(C)=CCN1c2cc(Cl)cc3[nH]c(=S)n(c23)C[C@@H]1C		RT-D67N K70R T215Y K219Q Y181C	MT-4		>30
Nc1ncnc2c1ncn2CCOCP(=O)(O)O	IIIB TIBO R82913 STR-2 (RT K103N)	RT-K103N	CEM	syncytia	1.43
C[C@H](Cn1cnc2c(N)ncnc21)OCP(=O)(O)O	P18 FDDA-resistant RT P119S V179D L214F	RT-P119S V179D L214F	MT-2	p24	0.565
Nc1ncnc2c1ncn2CC(CF)OCP(=O)(O)O	IIIB TIBO R82913 STR-B22 (RT L100I Y188H)	RT-L100I Y188H	CEM	syncytia	1.33
C[C@]1(CO)O[C@@H](n2ccc(N)nc2=O)C[C@@H]1O		RT-L74V	HeLa	β-galactosidase	0.89
CCCN(C)C(=O)Oc1nsnc1-c1c(Cl)ccc(N)c1Cl	IIIB	RT-E138K	MAGI	MTT	2.47
CC(C)c1nc(CN(C)C(=O)N[C@H](C(=O)N[C@@H](Cc2ccccc2)C[C@H](O)[C@H](Cc2ccccc2)NC(=O)OCc2cncs2)C(C)C)cs1	NL4-3	PR-D30N N88D	MT-4	p24	0.2
Nc1nc2c(ncn2[C@H]2CO[C@@H](CO)O2)c(=O)[nH]1	RT M41L 67N 74V 184V 210W 215Y 181C	RT-M41L D67N L74V Y181C M184V L210W T215Y			7.8
CCc1cc(CCc2nc3ccccc3o2)c(=O)[nH]c1C	A17	RT-K103N Y181C	H9	p24	1000
O=c1[nH]cnc2c1ncn2[C@H]1CC[C@@H](CO)O1		RT-L74V	C8166	p24	5
Cn1c2ccccc2c2c1cc(C#N)c(=O)n2-c1ccc([N+](=O)[O-])cc1	NNRTI-resistant	RT-K103N	HeLa	luciferase	0.5
CCn1c(=O)c(C)cn([C@@H]2O[C@H](CO[Si](C)(C)C(C)(C)C)C3(OS(=O)(=O)C=C3N)[C@H]2O[Si](C)(C)C(C)(C)C)c1=O	IIIB TIBO R82913 STR-2 (RT K103N)	RT-K103N	CEM	syncytia	10.7
COC(=O)c1cc2c(c(OC)c1-c1ccc(N(C)C)cc1)OCO2	NL4-3	V108I	C8166	antigen	25
Nc1nc(=O)n([C@@H]2CS[C@H](CO)O2)cc1F	HXB2	RT-V75T	CD4+HELA + HeLa	plaque count	3.29
Nc1ccn([C@H]2CC[C@@H](CO)O2)c(=O)n1		RT-delta67 K103N	MT-2	p24	5.2
Nc1nc(=O)n([C@@H]2CS[C@H](CO)O2)cc1F	184V (RT-M184V)	RT-M184V	HT4 + HT4 LacZ-1		>1250
CCc1cc(CCc2nc3c(Cl)ccc(Cl)c3o2)c(=O)[nH]c1C	A17	RT-K103N Y181C	H9	p24	60
Cc1cn([C@H]2C[C@H](N=[N+]=[N-])[C@@H](CO)O2)c(=O)[nH]c1=O	HXB2-D184 (RT-M184V)	RT-M184V	MT-4	p24	1.2
CCc1cc(NCc2nc3c(Cl)ccc(Cl)c3o2)c(=O)[nH]c1C	D34	TIBO-resistant	PBL	syncytia	~300
CC(C)=CCC[C@]1(C)C=Cc2c(ccc3c2C(=O)C(O)=C(C2=C(C4=C(O)C(=O)c5c(ccc6c5C=C[C@@](C)(CCC=C(C)C)O6)C4=O)C(=O)c4c(ccc5c4C=C[C@@](C)(CCC=C(C)C)O5)C2=O)C3=O)O1	RF	gp120 V64A G145E N315K Q374P gp41 P731L T762I L763R W766stop	CEM + MT-4		>1
Cc1cn([C@H]2C[C@H](N=[N+]=[N-])[C@@H](CO)O2)c(=O)[nH]c1=O		RT-M41L L74V V106A T215F	C8166	p24	3
Cc1cn([C@H]2C[C@H](N=[N+]=[N-])[C@@H](CO)O2)c(=O)[nH]c1=O	NRTI resistant	RT-M41L D67N T69N K70R T215F K219E	HeLa	luciferase	21
Nc1nc(=O)n([C@@H]2CS[C@H](CO)O2)cc1F	RTMC (RT D67N K70R T215F K219Q)	RT-D67N K70R T215F K219Q	HT4 + HT4 LacZ-1	plaque count	2.67
O=c1[nH]cnc2c1ncn2[C@H]1CC[C@@H](CO)O1	Recombinant	RT-V75I	PBMC	p24	0.2
Nc1nc(=O)n([C@@H]2CC[C@H](CO)O2)cc1F	184V (RT-M184V)	RT-M184V	HT4 + HT4 LacZ-1		>500
CCc1cc([C@](C#CC2CC2)(OCc2ccccc2)C(F)(F)F)c(=O)[nH]c1C		RT-K103N			2.46
Cc1cn([C@H]2C=C[C@@H](CO)O2)c(=O)[nH]c1=O	Recombinant	RT-V75I F77L Q151M	PBMC	p24	0.04
Nc1nc2c(ncn2[C@H]2CC[C@@H](CO)O2)c(=O)[nH]1	IIIB TIBO R82913 STR-B02 (RT L100I E138K)	RT-L100I E138K	CEM	syncytia	0.7
C[C@H](Cn1cnc2c(N)ncnc21)OCP(=O)(O)O	Recombinant	RT-M41L S68N G112S M184V	HeLa	luciferase	0.5
Cc1cn([C@@H]2O[C@H](CO[Si](C)(C)C(C)(C)C)C3(OS(=O)(=O)C=C3N)[C@H]2O[Si](C)(C)C(C)(C)C)c(=O)n(C)c1=O	IIIB TIBO R82913 STR-B22 (RT L100I Y188H)	RT-L100I Y188H	CEM	syncytia	≥1670
Nc1ccn([C@H]2C=C[C@@H](CO)O2)c(=O)n1	HXB2 FTC-P5 (RT V75T)	RT-V75T	CD4+HELA + HeLa	plaque count	3.33
CC(C)=CCN1Cc2cc(Cl)cc3[nH]c(=S)n(c23)C[C@@H]1C	IIIB nevirapine-resistant (RT Y181C)	RT-Y181C	CEM	syncytia	100
CC(C)=CCN1Cc2cccc3[nH]c(=S)n(c23)C[C@@H]1C	D34	TIBO-resistant	PBL	syncytia	1250

Repeating the first 5 entries:

{"SMILES": "Cc1cn([C@H]2C=C[C@@H](CO)O2)c(=O)[nH]c1=O", "strain": "RT Δ.67 T69G K103N", "changes": "1 (Δ.67+T69G+K103N)", "cells": "MT-2", "method": "p24", "value": "4.1"}
{"SMILES": "O=P(O)(O)Cc1cc2c(O)c(c1)Sc1cc(CP(=O)(O)O)cc(c1O)Sc1cc(CP(=O)(O)O)cc(c1O)Sc1cc(CP(=O)(O)O)cc(c1O)S2", "changes": "integrase inhibitor resistance mutation", "cells": "TZM-bl + MT-2", "method": "luciferase", "value": "1.3"}
{"SMILES": "CC(C)=CCN1c2cc(Cl)cc3[nH]c(=S)n(c23)C[C@@H]1C", "changes": "RT-D67N K70R T215Y K219Q Y181C", "cells": "MT-4", "value": ">30"}
{"SMILES": "Nc1ncnc2c1ncn2CCOCP(=O)(O)O", "strain": "IIIB TIBO R82913 STR-2 (RT K103N)", "changes": "RT-K103N", "cells": "CEM", "method": "syncytia", "value": "1.43"}
{"SMILES": "C[C@H](Cn1cnc2c(N)ncnc21)OCP(=O)(O)O", "strain": "P18 FDDA-resistant RT P119S V179D L214F", "changes": "RT-P119S V179D L214F", "cells": "MT-2", "method": "p24", "value": "0.565"}